Experimental data published in publication PMC6125681, “Stability of local secondary structure determines selectivity of viral RNA chaperones”.

Experiments:
NSP2 = biological target: T1, NSP2 (UniProt A2T3N6); experiment: fluorescence anisotropy; conditions: 50 mM NaCl, salt series; recombinant protein; label: 5' AlexaFluor488
T1 sequence (looked up, limits assumed): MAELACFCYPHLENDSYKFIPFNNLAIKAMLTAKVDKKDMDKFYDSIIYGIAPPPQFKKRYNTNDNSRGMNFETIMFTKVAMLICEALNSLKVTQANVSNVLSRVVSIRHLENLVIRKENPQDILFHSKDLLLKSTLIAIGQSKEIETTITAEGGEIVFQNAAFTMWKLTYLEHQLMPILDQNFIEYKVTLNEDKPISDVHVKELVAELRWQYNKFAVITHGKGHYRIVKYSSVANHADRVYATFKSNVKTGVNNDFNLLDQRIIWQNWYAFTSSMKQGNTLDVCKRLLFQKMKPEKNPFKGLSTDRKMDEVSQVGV

σNS [1] = experiment: SAXS; conditions: recombinant protein
σNS [2] = experiment: FCCS; conditions: multiple RNAs per hexamer; recombinant protein; label: Cy3 or Cy5 (same string printed for both)
σNS [3] = experiment: native ESI-IMS-MS, SEC, DLS, SAXS; conditions: octamer + 2 RNA, minor hexamer + 1 RNA; recombinant protein

Sequence: CUUUUCAAGACAUGCAACAA [unstructured 20mer]
- Kd (NSP2): 12 nM

Sequence: CUUUUCAAGACAUGCAACAACUUUUCAAGACAUGCAACAA [40mer]
- binding result (σNS [1]): binds

Sequence: UUCCUUCUAUUUCUUCU [17mer (S11-derived)]
- binding result (σNS [2]): binds

Sequence: CUUUUCAAGACAUGCAACAA [unstructured 20mer, unlabelled]
- binding result (σNS [3]): binds

For at least one entry, the source does not settle the construct or the ends of the probe. For some of these results: Where a protein sequence is shown, tags need not be part of it.
